Molecular target: Recombinant protective antigen (rPA) of anthrax toxin (Bacillus anthracis)
Experiment: SPR

sCMG2, recombinant soluble von Willebrand factor type A (vWA) domain of capillary morphogenesis prot (from UniProt P58335 39-218) (domain or fragment)
Kd: 1.67 nM | koff: 0.0138 s⁻¹ | kon: 7.98e+06 M⁻¹ s⁻¹
